Measurements: publication PMC7806604, “Structural and functional analysis of the Francisella lysine decarboxylase as a key actor in oxidative stress resistance” (2021)

Biological target: Francisella novicida lysine decarboxylase LdcF (Francisella novicida)
Test: crystal structure

Substance “Francisella novicida lysine decarboxylase LdcF (enzyme)” has a stoichiometry N of 10.
